Source: paper PMC9822940, “Antiplasmodial activity, structure–activity relationship and studies on the action of novel benzimidazole derivatives” (Scientific Reports, 2023)

test system: P. falciparum HB3 strain; assay: Antiplasmodial activity against P. falciparum HB3 strain in culture; format: cell-based, Plasmodium falciparum; conditions: Vero CC50 versus HB3 IC50
Description: In vitro activity of BZ. All BZ derivatives were tested at 10 μM against the HB3 strain of Pf, and for those compounds with a percentage of growth inhibition (% GI) higher than 50%, the IC50 values were determined. In addition, their cytotoxicity on epithelial Vero cell cultures was evaluated to calculate their selectivity indexes (SI), Table 1. An index of 10 or above is expected for a lead compound.
The chloroquine-sensitive […] and chloroquine-resistance 7G8 strain […] of P. falciparum were used throughout. Infected erythrocytes were kept in culture using the protocol established by Haynes et al.[44], basically utilizing human O^+ erythrocytes kept in an RPMI medium supplemented with glutamine and 10% human serum incubated in an atmosphere of 90% N2, 5% O2 and 5% CO2.

| Compound | SI (selectivity index) |
| --- | --- |
| Cc1ccc2[nH]c(NC(=O)c3ccc(-c4ccccc4)cn3)nc2c1 [BZ 7] | 2.5 |
| Cc1ccc2[nH]c(NC(=O)c3ccc4ccccc4n3)nc2c1 [BZ 9] | 4.5 |
| CCCCc1ccc(C(=O)Nc2nc3cc(Cl)ccc3[nH]2)nc1 [BZ 17] | 1.0 |
| COc1ccc2[nH]c(NC(=O)c3ccc(-c4ccccc4)cn3)nc2c1 [BZ 28] | 3.3 |
| O=C(Nc1nc2cc([N+](=O)[O-])ccc2[nH]1)c1ccccn1 [BZ 29] | 2.7 |
| CCCCCCCCC(NC(=O)OC(C)(C)C)C(=O)Nc1ccc2[nH]c(NC(=O)c3ccccn3)nc2c1 (stereo not drawn) [BZ 31] | 3.16 |
| CCCCCCCCC(N)C(=O)Nc1ccc2[nH]c(NC(=O)c3ccccn3)nc2c1 (stereo not drawn) [BZ 32] | 2.43 |
| CCCCc1ccc(C(=O)Nc2nc3cc(C)c(C)cc3[nH]2)nc1 [BZ 34] | 1.0 |
| Cc1cc2nc(NC(=O)c3ccc(-c4ccccc4)cn3)[nH]c2cc1C [BZ 35] | 1.3 |
